# Results taken from ChEMBL document CHEMBL1955737, “Diarylpyrimidine-dihydrobenzyloxopyrimidine hybrids: new, wide-spectrum anti-HIV-1 agents active at (sub)-nanomolar level” (J Med Chem, 2011).
# Test system: Human immunodeficiency virus type 1 reverse transcriptase (Human immunodeficiency virus 1), Q72547 [L100I]
compound,measurement,value
Cc1cc(C)c(Nc2ccnc(Nc3ccc(C#N)cc3)n2)c(C)c1 [DAPIVIRINE],ID50,90 nM
